These results are taken from PMC3936753.

For the data set, the target named is MBP-VP5 (Helicoverpa armigera cypovirus 5 (HaCPV-5)) (UniProt Q3LTV8). Put plainly: EMSA. The following applies: 10 pmol protein, 0.1 pmol probe; 25 mM HEPES-KOH pH 7.5, 100 mM NaCl, 10 ul, 30 min at room temperature; 2% agarose gel; recombinant protein; protein details: N-terminal MBP; label: 5'-HEX on DNA1. On the technique in general: A gel shift assay detects complexes by their altered migration in electrophoresis.

The exact form of at least one protein or probe is not confirmed. At least one verdict rests on a figure or table, not on a statement of the authors.

As for “GTGTAGTAATCGTCCATTGTGTCT (double strand) [DNA1/DNA3]”, the binding result was “binds”.
